Data set [1] has as its system CCC(=O)C(C)C(=O)SCCNC(C)=O. The experiment in a line: purified protein. The following applies: hydrolysis; rate not dependent on butanol.
For data set [2], the system named is CC(=O)NCCSC(=O)c1ccccc1. The experiment in a line: purified protein. Particulars: hydrolysis, no butanol or other exogenous nucleophile.

Km and kcat data for one substance are collected here from publication PMC2722786.

In the case of “Zea TE (thioesterase from PKS13) (Fusarium graminearum PH-1)”, in data set [1], the Michaelis constant (Km) – broadly, the concentration of substrate that gives half-maximal velocity – was determined as 4400 ± 1000 µM; the kcat (commonly the number of substrate molecules converted per active site and unit of time at saturation) turned out to be 0.39 ± 0.05 s⁻¹. Also, in data set [2], the Km was determined as 78 ± 8 µM and the kcat was determined as 1.18 ± 0.03 s⁻¹.
